For some assays here: The exact form of at least one protein or probe is not confirmed. For some assays here: Tags and fusion partners may be left off the protein sequences shown.
Experiments:
[1] = biological target: LoiA-His6 (Salmonella enterica serovar Typhimurium ATCC 14028) (UniProt A0A0F6AZ30); test: EMSA; conditions: LoiA 0-1.6 uM; 20 mM Tris-HCl pH 7.5, 80 mM NaCl, 0.1 mM EDTA, 1 mM DTT; […]; recombinant protein; residues 1-296; label: none (ethidium bromide stain); probe letters rebuilt from the primers and the genome
[2] = system: T1, ArcA-His6 (Salmonella enterica serovar Typhimurium ATCC 14028); test: EMSA; conditions: ArcA 0-1.6 uM, low O2; 20 mM Tris-HCl pH 7.5, 80 mM NaCl, 0.1 mM EDTA, 1 mM DTT; 100 ng DNA in 20 ul, 37 C, 20 min (ArcA under low O2); 6% PAGE in 0.5x TBE; recombinant protein; label: none (ethidium bromide stain); probe letters rebuilt from the primers and the genome
T1 sequence (looked up, limits assumed): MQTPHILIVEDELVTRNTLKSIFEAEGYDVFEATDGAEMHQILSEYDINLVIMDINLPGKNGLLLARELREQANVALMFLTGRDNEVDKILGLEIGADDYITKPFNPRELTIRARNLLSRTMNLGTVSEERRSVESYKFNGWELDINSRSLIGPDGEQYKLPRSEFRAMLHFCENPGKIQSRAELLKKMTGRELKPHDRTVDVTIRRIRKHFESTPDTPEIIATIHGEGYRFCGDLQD

Sequence: CTTCAAGCGTCACGTTAACTACCTGCTCTTTTTTGAGCACCAACATCCCAGGTTCGTCACAGTAAATCGTATCGTGATTATTGCTAATCGTCAGTTTACCGCTCCGAAAGCAAACTAAAGTGAAACTGCTTACATAAAGATTTTTGATGGTAACCTGCTGAGTCTGACTTTTAATTTGCTGCCGGGTATTTGTCAAAAGTGATTTTAATTTCTGTAAGTTATCTGCGGCAGGACGCTGATGACTATTACTTACAAAGGTTACATTTTCCATATTATCCCTTTGTTGATGTTATTTTAATGTTCCTTACTGGTATCCTACTGAAAAAATCTGAGTTGTAAATGCTCTTTATTAGCGTGTGTTGGCAATGGTCTGATTGTTACACCAAAAGAACCCAAATTTGGGTAATTTATCTACAGTAGTTTAAGCCCCAATGGGGATGATGGTTCTTTTAATATGTGTTGAGACGCATTATACAGAATAAATTGATTTTATTTCTCACTTTTCATTCTATTTTCATCAGGAATCCCTGTGTCCTGTGCGGTAATCTGCTGCTATCGAGAACGACAGACATCGCTAACAGTATATATGGAAACATCAAAAGAGAAGACGATAACAAGCCCAGGGCCATACATAGTTCGATTACTTAACAGCTCACTGAACGGCTGTGAGT (double strand) [hilD promoter (PhilD)]
- binding result [1]: binds

Sequence: ATTACTCTTTGCAAAAACAAAAAGTTAACAAAAAATTCACCATGCATTCAATGAATAAACATTATTAACATTAACTTCAAAAATTGATTTTAATCAATATTTAAATGTTGGAAAAGAGCATCAAAACTGGTTAAATTGTCCGTGATCAAATTCCCTGAAAAGCGATAGATTAGCCATAAATTGATCGCTGTCGAAAAAAGCAAATCTGACCCACTAAAAACCTGTTTATTGTAAGGGTTTTACGGCGTAATATATTTGCGGGATCAATTTGGGTTTTTTATTAACATGTTTGTAACTTTTCATCATTACTGTTTCCTTCCCGAGGGGATAGTACGATGGAAGGCCGCAAATAAATTTGTATTGGGGCATGCGTGTGACCCTTTCTAACGGGGTTCACTCTCGGAGTCTTCATGCGATGAGCAAGGAGTCATGATGTTAGATATAGTCGAACTGTCGCGCTTACAGTTTGCCTTGACCGCGATGTACCACTTCCTGTTTGTGCCGCTAACGCTCGGTATGGCGTTCCTGCTGGCCATTATGGAAACGGTATACGTCCTTTCCGGCAAACAGATTTATAAAGATATGACCAAGTTC (double strand) [cydA promoter (PcydA)]
- binding result [2]: binds
